Results deposited as PubChem BioAssay AID504761 (Drosophila RNAi Screening Center, 2011).
The deposit covers about 22,000 reagents; shown is an unselected part of those that have a named target and a result. Of all reagents, 116 (0.52%) are marked active. 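Calls depend on retest data that are not deposited; infection was ranked per plate without normalising between plates; the unit of the infection score is not given.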 The raw values are shown without normalisation. Reagents against one gene are numbered here. A plus sign joins genes that one reagent is predicted to hit. Further read-outs or replicates are left out here. Reagent sequences are not shown. The record does not give: the amount of reagent, the time to read-out.

Assay: 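Genome-wide fly cell screen for genes dengue virus requires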 (primary screen)
System: D.Mel-2 cells from Drosophila
Reagents: long dsRNA against Drosophila genes
Conditions: infection with dengue virus type 2; dose and infection time not stated
Measured: 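Per well on two replicate plates, imaging gave the percent of cells positive for viral envelope protein, ranked by infection, and a nuclear count of cells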
Direction: infection score: higher = more virus-infected cells; cell count: higher = more cells in the well
Active means: 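Very low infection ranking in both replicate wells (chance probability at most 0.065), then a retest showing infection dropped 1.5-fold or more at p below 0.05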
Calls: active = confirmed: knock-down lowers infection; inactive = not picked or not confirmed

| Target gene | reagent | infection score, replicate 1 | infection score, replicate 2 | cell count, replicate 1 | call |
| --- | --- | --- | --- | --- | --- |
| CG10950 | 1 | 14.9 | 9.42 | 6413 | inactive |
| fj (four-jointed) | 1 | 8.35 | 25.7 | 6045 | inactive |
| fj (four-jointed) | 2 | 10.8 | 19.5 | 6507 | inactive |
| larp (La related protein) | 1 | 1.36 | 11.2 | 5521 | inactive |
| larp (La related protein) | 2 | 2.33 | 4.35 | 5586 | inactive |
| larp (La related protein) | 3 | 12.9 | 3.58 | 5025 | inactive |
| larp (La related protein) | 4 | 1.64 | 4.61 | 5616 | inactive |
| larp (La related protein) | 5 | 9.75 | 13.5 | 3303 | inactive |
| CG34430 | 1 | 11.3 | 6.12 | 5058 | inactive |
| pav (pavarotti) | 1 | 2.1 | 3.24 | 3573 | inactive |
| pav (pavarotti) | 2 | 5.9 | 1.67 | 4612 | inactive |
| CG17618 (retired record) + CG45049 | 1 | 0.8 | 6.79 | 6470 | inactive |
| CG17618 (retired record) + CG45049 | 2 | 1.24 | 14.8 | 5880 | inactive |
| Rh3 (Rhodopsin 3) | 1 | 4.65 | 6.23 | 6988 | inactive |
| CG7130 | 1 | 6.88 | 6.59 | 6151 | inactive |
| Polr3G (RNA polymerase III subunit G) | 1 | 2.31 | 5.06 | 5769 | inactive |
| Nepl12 (Neprilysin-like 12) | 1 | 1.22 | 4.43 | 5833 | inactive |
| RpS30 (Ribosomal protein S30) | 1 | 6.95 | 5.56 | 1711 | inactive |
| RpS30 (Ribosomal protein S30) | 2 | 4.65 | 6.33 | 1937 | inactive |
| CG4520 | 1 | 3.63 | 8.15 | 6564 | inactive |
| CG4520 | 2 | 9.34 | 8.13 | 5073 | inactive |
| st (scarlet) | 1 | 2.64 | 5.16 | 6822 | inactive |
| st (scarlet) | 2 | 15.7 | 9.27 | 4930 | inactive |

Reformatted: 2 of the entries above
{"Target gene":"CG4520","reagent":1,"infection score, replicate 1":3.63,"infection score, replicate 2":8.15,"cell count, replicate 1":6564,"call":"inactive"}
{"Target gene":"CG4520","reagent":2,"infection score, replicate 1":9.34,"infection score, replicate 2":8.13,"cell count, replicate 1":5073,"call":"inactive"}
